Results of unrelated studies side by side (data: NIAID ChemDB).

Shared fields: whole-cell or culture tests; agent: Hepatitis B virus; cell line: HepG2.2.15; endpoint: EC50

Two numbers with a dash give a range or band. ECn is the concentration giving n% inhibition of infection, replication or growth. Rows are shuffled and stem from different studies. An empty or dashed field is not shown.

SMILES | read by | setting | value
O=C(CCc1ccccc1)[Se]c1ccccc1 | PCR | - | 2.8 µM
CCOC(=O)/C=C/c1ccc(O)c(O)c1 | PCR | - | 25.77 µM
O=C(/C=C/c1ccc(O)c(O)c1)O[C@H]1CC(O)(C(=O)O)C[C@H](OC(=O)/C=C/c2ccc(O)c(O)c2)C1O | PCR | - | 6.4 µM
C[C@H]1[C@H](C)C[C@@H](C(=O)O[C@@H]2O[C@H](CO[C@@H]3O[C@H](CO)[C@@H](O[C@@H]4O[C@H](C)[C@H](O)[C@@H](O)[C@H]4O)[C@H](O)[C@H]3O)[C@@H](O)[C@H](O)[C@H]2O)C2CC[C@]3(C)C(=CC[C@@H]4[C@@]5(C)C[C@@H](O)[C@H](O)[C@@](C)(CO)[C@@H]5CC[C@]43C)[C@H]21 | antigen | 7 d | 84.2 µM
Nc1ccn([C@@H]2CS[C@H](CO)O2)c(=O)n1 | - | - | 0.056 µM
O=C(/C=C/c1ccc(O)c(O)c1)O[C@H]1[C@@H](OC(=O)/C=C/c2ccc(O)c(O)c2)C[C@](O)(C(=O)O)C[C@@H]1O | PCR | - | 9.8 µM
Cc1cn([C@@H]2C[C@@H](O)[C@H](CO)O2)c(=O)[nH]c1=O | - | - | 0.19 µM
COc1ccc([C@H]2OC[C@H]3[C@@H]2CO[C@@H]3c2ccc(OC)c(O)c2)cc1O | PCR | - | 10.92 µM
Nc1ncnc2c1ncn2CCOCP(=O)(O)O | - | - | 0.465 µM
C=C1CC[C@@H](O)[C@]2(C)CC[C@@H](C(C)C)[C@H](O)[C@@H]12 | ELISA / antigen | - | 155 µM
O=C(/C=C/C=C/c1ccc(O)c(O)c1)[Se]c1ccccc1 | PCR | - | 6.3 µM
Nc1ncnc2c1ncn2[C@@H]1C[C@@H](O)[C@H](CO)O1 | - | - | 0.1–1.9 µM
O=C(/C=C/c1ccc(O)c(O)c1)O[C@@H]1[C@H](O)C[C@@](O)(C(=O)O)C[C@H]1OC(=O)/C=C/c1ccc(O)c(O)c1 | ELISA / antigen | - | 202.7 µM
Nc1nc(=O)n([C@@H]2C[C@@H](O)[C@H](CO)O2)cc1F | - | - | 5 µM
O=C(C=Cc1ccc(O)c(O)c1)O[C@@H]1C[C@](O)(C(=O)O)C[C@@H](O)[C@H]1O | ELISA / antigen | - | >1380 µM
O=Cc1cc(O)c(O)c(O)c1 | ELISA / antigen | - | <55.72 µM
CC(C)=CC/C=C(/C)[C@H]1CC[C@]2(C)[C@@H]1[C@H](O)C[C@@H]1[C@@]3(C)CC[C@H](O)C(C)(C)[C@@H]3[C@@H](OC3OC(CO)C(O)C(O)C3O)C[C@]12C | PCR | 4 d | 5.572 µM
Cc1ccc(/C=C/C=C/C(=O)[Se]c2ccccc2)cc1 | PCR | - | 3.7 µM
Nc1nc(Cl)nc2c1ncn2[C@@H]1C[C@@H](O)[C@H](CO)O1 | - | - | >10 µM

For reference, 2 entries again:

O=C(CCc1ccccc1)[Se]c1ccccc1 ; read by: PCR ; value: 2.8 µM
O=Cc1cc(O)c(O)c(O)c1 ; read by: ELISA / antigen ; value: <55.72 µM